Measured values as given in patent US20120207760A1, “Compositions and Methods for the Therapy and Diagnosis of Influenza” (THERACLONE SCIENCES, published 2012).
Changes are numbered by the printed parent chain.

B1: TCN-526 (5084_C17) (antibody, V domains shown)
VH: EVLMVESGGGLVQPGGSVRLSCVASGFSFSSHWMTWVRQAPGKGLEWVANIEDDGGDKYYVDSVKGRFIISRDNAKNSVYLQMNSLRAEDTAVYFCARGSGSSDRSDYDPHYYYYLDVWGKGATVTVSS
VL: DIQLTQSPSSLSASVGDRVTITCRASQSISRYLNWYQQKPGKAPKLLLFAASTLLDGVPSRFSGSGSGTDFTLTISSLQPEDFATYYCQRNHSPSWTFGQGTRVEIK
B2: TCN-529 (5297_H01) (antibody, V domains shown)
VH: QITLRESGPTLVKPTQTLTLTCTFSGFSLSTNGVNVGWIRQPPGKALEWLALIYWDDDKRYSPSLKRRLTITKDTSKNQVVLTLTNMDPVDTATYYCAHRPDFYGDFEYWGPGTLVTVSS
VL: QSALTQPASVSGSPGQSITISCTGSSSDIGGYNYVSWYQQHPGKAPKLMIYDVNNRPSGVSNRFSGSKSGNTASLTISGLQTDDEADYYCGSYTGSPHYVFGTGTKVTVL
B3: TCN-545 (5082_I15) (antibody, V domains shown)
VH: QVQLQQWGAGLLKPSETLSLSCAVFGGSFSDYYWTWIRQPPGKGLEWIGEIKHSGRTNYNPSLESRVTISVDTSKNQFSLKLSSVTAADTAIYYCARGTDPDTEGYCRSGSCSAFDFWGQGTLVTVSS
VL: EIVLTQSPGTLSLSPGERATLSCRASHFVNYRSLAWYQQTPGQVPRLLIYGASTRATGIPDRFSGSGSGTDFTLTISRLEPEDFAVYFCQQYGGSPRYTFGQGTRLEIK
B4: TCN-555 (5246_L16) (antibody, V domains shown)
VH: QVQLVQSGAEVKRPGSSVKVSCTASGGIFRKNAISWVRQAPGQGLEWMGGIIAVFNTANYAQKFQNRVKITADESGNTAYMELSSLTSDDTAVYYCASHPKYFYGSGSYPDFWGQGTLVTVSS
VL: QSALTQPRSVSGSPGQSITISCTGGSSDIGASNSVSWYQQHPGKAPKLVIFDVTERPSGVPHRFSGSKSGNTASLTVSGLQPDDEADYFCCAYGGKYLVVFGGGTKVTVL
B5: TCN-537 (3194_D21) (antibody, V domains shown)
VH: QVQLQQWGSGLLKPSETLSLTCAVYGGSFRDDYWTWIRQPPGKGLEWIGEINHSGRTNYNPSLKSRVTISVDTSLKQFSLKVISVTAADTAVYYCARGTSHVSRYFDWLPPTNWFDPWGQGTQVTVSS
VL: DIVLTQSPGTLSLSPGERATLSCRASQSVSSSYLAWYQQKPGQAPRLVMYGAATRATGIPDRFSGSGSGPDFTLTISRLEPEDFAMYYCQQYGNSPITFGQGTRLEIK
B6: TCN-538 (3206_O17) (antibody, V domains shown)
VH: QITLKESGPTLVKPTQTLTLTCVFSGFSLSITGVRVGWIRQPPGKALEWLALISWDDEKHYSPSLQSRLTITKDTSKNQVVLTMTNLDPVDTATYYCARSTDRGHVLRYFGWMLPGDAFDVWGQGTMVTVSS
VL: DIVMTQSPDFLPVSLGERATINCKSSQRVLYSSNNKNYLAWYQLKPGQPPKLIIYWASTRESGVPDRFSGSGSGTEFTLTISSLQAEDVAVYYCQQYYSRPYTFGQGTKLEIK
B7: TCN-539 (5056_A08) (antibody, V domains shown)
VH: QVQLVESGGGVVQPGRSLRLSCAASEITFITYAMHWVRQAPGKGLEWVALISDDGSNKFYADSVKGRFTISRDNSKNTLYLQMNSLRAEDTAAYYCAREGVYFDSGTYRGYFDYWGQETLVTVSS
VL: EIVLTQSPATLSLSPGERATLSCRASQSVSSYLAWYQQKPGQAPRLLIYDASNRATGIPARFSGSGSGTDFTLTISSLEPEDFAVYYCQQRSHWPPITFGQGTRLEIK
B8: TCN-542 (5079_A16) (antibody, V domains shown)
VH: QVQLQESGPGLVKPSQTLSLTCTVSGGSISSGNYYWNWVRQHPGKGLEWIGYIYYRGSTFYNPSLKSRVTISIDTSKNQFSLRLSSVTAADTAVYYCAKDTRSSLDNYQYGMDVWGQGTTVTVSS
VL: QTVVTQEPSLTVSPGGTVTLTCASSTGAVTSSYFPNWFQQKPGQAPRPLIYSTTIRHSWTPARFSGSLLGGKAALTLSGVQPEDEADYYCLLYSGGDPVAFGGGTKLTVL
B9: TCN-543 (5081_G23) (antibody, V domains shown)
VH: QVHLVQSGAEVRKPGDSVKVSCKTSGYTFSTYPVAWVRQVPGQGLEWMGWISTYNGNTNFAQNFQGRVTLTTDTTTNTAYMEVRSLKFDDTAVYYCARVEGSYRDFWNNQNRFDPWGQGTLVTVSS
VL: SYVLTQPPSVSVAPGQTARISCGGSNIGGKSVHWYQQKPGQAPVLVVYDDSGRPSGIPERFSGSNSGDTATLTISRVEAGDEADYFCQVWDNFGGVFGTGTKVTVL
B10: TCN-544 (5082_A19) (antibody, V domains shown)
VH: QVQLQESGPGLVKPSETLSLTCTVSRGSIGHYFWSWIRQPPGKGLEWIGYISYSGSTKYNPSLRSRVTISVDTSKNQFSLNLNSVTATDTALYYCAREDYDILTGAGPGMEVWGQGTTVTVSS
VL: QSMLTQPPSASGTPGQRVTISCSGSSSNIGSNTVNWFKHLPGTAPKLLIYRNDLRPSGVPDRFSGSKSGTSASLAISGLQSEDEADYYCATWDDSLNGFYVFGTGTKVTVL
B11: TCN-545 (5082_I15) (antibody, V domains shown)
VH: B3 VH
VL: B3 VL
B12: TCN-547 (5092_F11) (antibody, V domains shown)
VH: QVQLQESGPGLVKPSQTLSLTCTVSGDSISSVDHYWSWIRQHPVKGLEWIGFMYYSASTYYNPSLKSRVTISTDTSKNQFSLRLSSVTAADTAVYYCARGTCAGDCSLHYYYYGLDVWGQGRTVTVSS
VL: DIQMTQSPSSLSASVGDRVTITCRASQSISSYLNWYQHKPGKAPKVLMYAVSILQSGVPSRFSGSGSGADFTLTISSLQPEDFATYYCQQSYSSPLTFGGGTKVEIK
B13: TCN-548 (5092_P01) (antibody, V domains shown)
VH: QVQLQESGPGLVKPSETLSLTCTVSSGPMSDYYWSWIRQPPGKGLEWIGHVSVSHGGRTKSNPSVMSRVTISVETSKNQFSLKLTSVTAADTAVYYCARLNYYDRSGYHSPDGPSNNWFDPWGQGTLVTVSS
VL: DIVMTQSPDSLAVSLGERATINCKSSQSVLYSSNNKNYLAWYQQKPGQPPKLLIYWASTRESGVPDRISGSGSGADFTLTISSLQAEDVAVYYCQQYFATPRTFGQGTKVEIK
B14: TCN-549 (5092_P04) (antibody, V domains shown)
VH: QVQLVQSGAEVKKPGASVKVSCKASGYTFTGYYMHWVRQAPGQGLEWMGWINPNSGDTNYAQKFQGRVTMTRDTSITTAYMELSSLRSDDTAVYYCARDSPYSSSWSFFDYWGQGPLVTVSS
VL: B13 VL with N37S, Y38H, I68F, A75T, T80I, F98Y, A99F, T100S, R102L, Q106G
B15: TCN-550 (5096_F06) (antibody, V domains shown)
VH: QVQLQESGPGLVKPSETLSLTCTVSGASINSHYWSWIRQPPGKGLEWIGYVYYSGSTTYNPSLKSRVTLSVDTSKNQFSLNLSSVTAADTAFYYCARHPYDVLTGSGDWFDPWGQGTLVTVSS
VL: SYVLTQAPSVSVAPGQTARITCGGNAIGSKKVHWYQHKAGQAPVLVVYDDTDRPSGIPERFSGSNSWSTATLTINRVEAGDEADYYCQVWDFTIDHVVFGGGTKLTVL
B16: TCN-551 (5243_D01) (antibody, V domains shown)
VH: EVQLVQSGSEVKKPGESLKISCKGSGYSFSNYWIGWVRHMPGKGLEWMGIIYPGDSDTRYSPSFQGQVTMSADKSSSTVYLQWSSLKASDTAIYYCARRGGHSFGYGSGGDTHSEFDSWGQGTLVTVSS
VL: QSVLTQSPSVSAAPGQKVTISCSGSDSNIGDYFVCWYQHLPGKPPQLLIYENNKRPSGIPDRFSGSKSGTSATLGITGIQTGDEADYYCATWDGSLSAWVFGGGTKLTVL
B17: TCN-552 (5249_I23) (antibody, V domains shown)
VH: QVQVVQSGAEVKKPGSSVRVSCQASGGTFMNYAIIWVRRAPGQGLEWMGGIIPVFPTPNYAQMFQGRVTISTDESRSTSFLELTNLRYEDTAVYYCARRIYHGGNSGFDFWGQGTLVTVSS
VL: EIVLTQSPATLSLSPGERATLSCRASQSVGNYLAWYQQKPGQAPRLLIYDSSNRAPGIPARFSGSGSGTDFTLTISSLAPEDFAVYYCQQRSKWPPMYSFGHGTKLEIK
B18: TCN-553 (5261_C18) (antibody, V domains shown)
VH: QVQVVQSGTEVKKPGSSVKVSCQTSGGRFMSYAITWVRQAPGQGLEWMGGIVPVFGTANYAQKFQGRVTITTDDSTRTAYMELSSLRSEDTAVYYCGFRYGSGYGFDSWGQGTLVTVSS
VL: EIVLTQSPGTLSLSPGERATLSCRASQSVSSSYLAWYQKKPGQAPRLLIYGASTRATGIPDRFTGSGSGTDFTLSISRLEPEDFAVYYCQHFGTSVFTFGGGTKVEIK
B19: TCN-554 (5277_M05) (antibody, V domains shown)
VH: QVQLVQSGADLKKPGASVKVSCKASGYTFTDYYIHWVRQAPGQGLEWMGWINPESGDTKYAQKFQGRVTMTRDTSITTAYMELGRLRSDDTAVYYCARDVSTTWSWFAPWGQGTLVTVSS
VL: DIVMTQSPDSLAVSLGERATINCRSSQSIFHNSNNENYLAWYQQKPGQPPKLLIYWASTRESGVPDRFSGSGSGTDFTLTISSLQAEDVAVYFCQQYYNAPLTFGGGTKVEIK
B20: TCN-556 (5089_K12) (antibody, V domains shown)
VH: QVQLVQSGAEVKKPGASVKVSCKASGYTFIGYDMHWVRQAPGQGLEWMGWINAKRGGTNYAQKFQGRVTMTRDTSISTAYMELNSLRSDDTAVYYCARGVGSRTTIFGVLNPEFDYWGQGTLVTVSS
VL: QSALTQPPSASGSPGQSVTISCTGSSSDVGGYDYVSWYQQHPGKAPKLLIYEVTKRPSGVPDRFSGSKSGNTASLTVSGLQAEDEADYYCSSYAGNYNHVFGPGTKVTVL
B21: TCN-544 (5082_A19) (antibody, V domains shown)
VH: B10 VH
VL: B10 VL

Each binder was assayed against recombinant soluble homotrimeric HA of A/Wisconsin/67/05 (H3N2) (Influenza A virus A/Wisconsin/67/05 …) (assay: not given).
For B1, the “Trimeric HA Binding: RLU” value was 49300 RLU.
B2 was tested, and the “Trimeric HA Binding: RLU” value was 51600 RLU.
B3 was tested, and the “Trimeric HA Binding: RLU” value was 575 RLU.

What follows are binders tested against hemagglutinin (HA) of influenza A/Wisconsin/67/05 H3N2 (Influenza A virus A/Wisconsin/67/2005 …) (assay: ELISA, inactivated whole virions coated; transfection supernatant set 5).
B4 was tested, and the OD450 was 0.13 OD450.
With B5 the OD450 was 0.11 OD450.
B6 gave an OD450 of 0.12 OD450.
Binder B7 has an OD450 of 0.13 OD450.
B8 showed an OD450 of 0.23 OD450.
For B9, the OD450 was 2.23 OD450.
Binder B10 has an OD450 of 3.65 OD450.
Binder B11 has an OD450 of 3.62 OD450.
B12 was tested, and the OD450 was 0.13 OD450.
B13 gave an OD450 of 3.63 OD450.
For B14, the OD450 was 0.46 OD450.
With B15 the OD450 was 3.62 OD450.
B16 showed an OD450 of 0.27 OD450.
With B17 the OD450 was 0.27 OD450.
B18 gave an OD450 of 0.17 OD450.
With B19 the OD450 was 3.4 OD450.
B20 gave an OD450 of 0.34 OD450.

The binders below were run against recombinant soluble homotrimeric HA of A/chicken/Vietnam/NCVD-016/08 (H5N1) (Influenza A virus …) (assay: microarray, BCC supernatant IgG, trimeric HA).
B2 was tested, and the “Trimeric HA Binding: RLU” value was 410 RLU.
For B21, the “Trimeric HA Binding: RLU” value was 272 RLU.
B3 was tested, and the “Trimeric HA Binding: RLU” value was 392 RLU.

What follows are binders tested against recombinant soluble homotrimeric HA of A/Solomon Islands/3/06 (H1N1) (Influenza A virus A/Solomon …) (assay: microarray, BCC supernatant IgG, trimeric HA).
In the case of B1, the “Trimeric HA Binding: RLU” value is reported as 341 RLU.
In the case of B21, the “Trimeric HA Binding: RLU” value is reported as 179 RLU.
